Human monoclonal antibodies against the spike receptor-binding domain (heavy:light variable regions). IC50 against pseudoviruses bearing the spike of naturally observed variants; lower = stronger; >10 µg/ml means not reached at the top dose. No active / inactive call. The stated detection limit is 0.0005 µg/ml; values near or below 0.001 µg/ml lie at the floor of the assay.

Here are results for 12 molecules from the supplement of paper PMC9931576.

Common to all, as to assay: pseudovirus neutralization IC50; higher = weaker neutralization
The target of assay [1] is SARS-CoV-2 Omicron BA.1 spike pseudovirus. On the procedure:
(§1)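 Single-round VSV luciferase pseudovirus mixed with antibody dilutions for 1 h and put on Huh-7 cells for about a day; IC50 from the dose curve.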

Assay [2] deals with SARS-CoV-2 Omicron BA.2 spike pseudovirus. The method, then: as §1
Assay [3] deals with SARS-CoV-2 Omicron BA.2.75 spike pseudovirus. The method, then: as §1
Assay [4] addresses SARS-CoV-2 Omicron BA.5 spike pseudovirus. On the procedure: as §1
Assay [5] addresses SARS-CoV-2 Omicron BQ.1.1 spike pseudovirus. The method, then:
as §1

In assay [6] the target is SARS-CoV-2 Omicron XBB spike pseudovirus. On the procedure:
as §1

For assay [7], the target named is SARS-CoV-2 early D614G spike pseudovirus. The method, then: as §1

B1: BD55-44 (protein)
chain 1: QVQLQESGPGLVKPSGTLSLTCAVSGGSISSSNWWSWVRQPPGKGLEWIGEIFQSGSTSYNPSLSSRVTISVDKSKNQFSLNLRSVTAADTAVYFCARDEGERYCNSGSCYSRLDYWGQGTLVTVSS
chain 2: DIQMTQSPSSLSASVGDRVTITCRASQGISNYLAWFQQRPGKAPKSLIYAASNLQSGVPSRFSGSGSGTEFTLTISSLQPEDFATYYCQQYDIYPPTFGPGTKVDVK
Turning to B1, the “pseudovirus neutralization IC50” value is 0.11 µg/mL in assay [1]; 0.379 µg/mL in assay [2]; greater than 10 µg/mL in assay [3]; greater than 10 µg/mL in assay [4]; greater than 10 µg/mL in assay [5]; greater than 10 µg/mL in assay [6]. Also, the “pseudovirus neutralization IC50” value in assay [7] came to 0.006 µg/mL.

B2: BD55-387 (protein)
chain 1: QITLKESGPTLVKPTQTLTLTCTFSGFSLSTSGVGVGWIRQPPGKALEWLALIYWDDDKRYSPALKSRLTITEDTSKNQVVLTMTNMDPVDTATYYCAHCAPAWNYFDYWGQGTLVAVSS
chain 2: QSVLTQPPSVSGAPGQRVTISCTGSSSNIGAGYDVHWYQQLPGTAPKLLIYRNSNRPSGVPGRFSGSKSGTSASLAITGLQAEDEADYFCQSYDSSLSGWVFGGGTKLTVL
For B2, the “pseudovirus neutralization IC50” value in assay [1] was 1.57 µg/mL; in assay [2] it was 0.878 µg/mL; in assay [3], 1.13 µg/mL; in assay [4] it was 0.757 µg/mL; in assay [5] it was greater than 10 µg/mL; in assay [6], greater than 10 µg/mL. Further, in assay [7], the “pseudovirus neutralization IC50” value came out at 0.535 µg/mL.

B3: BD55-864 (protein)
chain 1: QVQLQQWGAGLLKPSETLSRTCAVYGGSFSGYYWTWIRQSPGKGLEWIGEINDSGSASYSPSLMSRVTISVDPSKNQFSLELRSVTAADTAVYFCARTVNRDRSGYVWFFDYWAQGTLVTVSS
chain 2: DIQMTQSPSSLSASVGDSVTITCRASQDITTYLNWYQQKPGQAPKLLIYATSTLQSGVPFRFRGSGFEMYFTLTINSLQPEDFATYYCQQSYNIPYTFGQGTKLEIK
Turning to B3, the “pseudovirus neutralization IC50” value in assay [1], in assay [2], in assay [3], in assay [4], in assay [5] and in assay [6] was greater than 10 µg/mL throughout. Besides, in assay [7], the “pseudovirus neutralization IC50” value is greater than 10 µg/mL.

B4: BD-708 (protein)
chain 1: QVQLVESGGGVVQPGRSLRLSCAASGFTLSNYAMHWVRQAPGTGLEWVAVISDDGSIKFYADSVKGRFTISRDNSKNTLYLQMNSLRAEDTAVYYCARDGDDSSGYFFDYWGQGTLVTVSS
chain 2: DIQMTQSPSSLSASVGDRVTITCRASQGINNFLAWYQQKPGKAPKLLLYSASRLESGVPSRFSGSGSGTDYTLTISSLQPEDFATYYCQQYYSTLALTFGGGTKVEIK
As to B4, the “pseudovirus neutralization IC50” value in assay [1], in assay [2], in assay [3], in assay [4], in assay [5] and in assay [6] was greater than 10 µg/mL each time. In addition, in assay [7], the “pseudovirus neutralization IC50” value is 0.468 µg/mL.

B5: BD55-842 (protein)
chain 1: EVQLVQSGAELKKPGQSLKISCHGSGYTFTTNWIAWVRQMPGKGLEWMGVIYPGDSDTRYSPSLQGQVTISVDKSISTAYLQWSSLEASDSGMYYCARGGSTYTSAWQDDGFDVWGPGTMVTVSS
chain 2: SYELTQAPSVSVSPGQAANISCSGDKLGYRYVSWYQQKPGQSPVLVIYQDNRRPSGIPERFSGSNSGNTATLTISGTQASDEADYSCLTWDISTGVFGGGTKLTVL
B5: the “pseudovirus neutralization IC50” value in assay [1], in assay [2], in assay [3], in assay [4], in assay [5] and in assay [6] was greater than 10 µg/mL each time. For the same molecule, the “pseudovirus neutralization IC50” value in assay [7] is greater than 10 µg/mL.

B6: BD55-347 (protein)
chain 1: QVQLVESGGGVVQPGRSLRLSCAVSGFTFRSYAMHWVRQAPGKGLEWVAVTSHDGSDKYYADSVKGRFTISRDNSKNTLYLQVSSLRTEDTAVYFCARDNSGGYCRRSRCYSYSFPDNWGQGTLVTVSS
chain 2: NFMLTQPHSVSESPGKTVTISCTGSSGNIASSYVQWYQQRPGSAPTTVIYEDNQRPSGVPDRFSGSVDSSSNSASLTISGLKTADEADYYCQSFDSSHHVVFGGGTKLTVL
In the case of B6, the “pseudovirus neutralization IC50” value was 2.46 µg/mL in assay [1]; greater than 10 µg/mL in assay [2]; greater than 10 µg/mL in assay [3]; greater than 10 µg/mL in assay [4]; greater than 10 µg/mL in assay [5]; greater than 10 µg/mL in assay [6]. Further, the “pseudovirus neutralization IC50” value in assay [7] is 0.362 µg/mL.

B7: BD-667 (protein)
chain 1: QVQLVESGGGLVKPGGSLRLSCAASGFRFSDYYMNWIRQAPGKGLEWISYIGSGGFATYYGDSVKGRFTVSRDDAENSLYLQMNSLRAEDTAVYYCARGVTSYSDNSGNYRTDDAFDIWGQGTMVTVSS
chain 2: EIVMTQSPATLSVSPGERATLSCRASQSVSRNLAWYQQRPGQAPRLLIYGASTRATGVAARFTGSGFGTEFTLTISGLQSEDFAVYYCQEYNNWPPWTFGQGTKVEIK
Consider B7, for which the “pseudovirus neutralization IC50” value in assay [1] was greater than 10 µg/mL; in assay [2], 0.646 µg/mL; in assay [3], 1.25 µg/mL; in assay [4] it was greater than 10 µg/mL; in assay [5] it was greater than 10 µg/mL; in assay [6], greater than 10 µg/mL. Also, in assay [7], the “pseudovirus neutralization IC50” value is 1.11 µg/mL.

B8: BD55-316 (protein)
chain 1: EVQLVESGGGLVQPGGSLRLSCAASGFTFSSYYMNWVRQAPGKGLEWVANIKEDGSEKYYADSVRGRFTISRDNAKNSLFLQMSSLRAEDTAVYYCAGQLWLRGWFDPWGQGTLVSVSS
chain 2: NFMLTQPHSVSESPGKTVTISCTHSRGNIASNYVQWYQHRPDSAPTTVIYEDNQRPSGVPDRFSGSIDSSSNSASLTISGLKTEDEADYYCQSFDTSNHPSWIFGGGTKLTVL
As to B8, the “pseudovirus neutralization IC50” value in assay [1], in assay [2], in assay [3], in assay [4], in assay [5] and in assay [6] was greater than 10 µg/mL throughout. Besides, the “pseudovirus neutralization IC50” value in assay [7] worked out at 0.23 µg/mL.

B9: BD-715 (protein)
chain 1: EVQLVESGGGFVQPGRSLRLSCAASGFIMDDYAMHWVRQAPGKGLEWVSGISWNSGTRGYADSVKGRFTVSRDNAKNSFYLQMNSLRAADTAVYYCAKDHGPWIAANGHYFDYWGQGTLVTVSS
chain 2: QSVLTQPPSASGTPGQRVTISCSGSKSNIGSNPVNWYQQLPGTAPKLLIYSNNERPSGVPARFSGSKSGTSASLAISGLQSEDEADYYCVTWDDSLNGWVFGGGTKLTVL
As for B9, the “pseudovirus neutralization IC50” value in assay [1], in assay [2], in assay [3], in assay [4], in assay [5] and in assay [6] was greater than 10 µg/mL in each case. Further, the “pseudovirus neutralization IC50” value in assay [7] was found to be 0.006 µg/mL.

B10: BD-702 (protein)
chain 1: EVQLVESGGGLVQPGGSLRLSCAASGFTFSNYNMNWVRQAPGKGLEWVSFISSSSTKYYADSVKGRFTISRDNAKNSLYLQMNSLRDEDTAIYYCARLKYTYGEIDYWGQGTLVTVSS
chain 2: NFMLTQPHSVSESPGKTVTISCTGSSGAIATNYVQWYQQRPGSAPTTVIYEDNQRPSGVPDRFSGSIDSSSNSASLTISGLKTEDEADYYCQSYNNFNWVFGGGTKLTVL
Consider B10, for which the “pseudovirus neutralization IC50” value in assay [1], in assay [2], in assay [3], in assay [4], in assay [5] and in assay [6] was greater than 10 µg/mL in each case. In assay [7], the “pseudovirus neutralization IC50” value stood at 0.476 µg/mL.

B11: BD55-862 (protein)
chain 1: EVQLVESGGDLVQPGGSLRLSCAASGFTFRSYEMNWVRQAPGKGLEWVSYIGSSGNEIYYADSVKGRFTVSRDNAKNSLFLQMNSLRAEDTAVYYCARGGGTATITFDSWGQGTLVTVSS
chain 2: SYVLTQPPSVSVAPGKTARITCGGSNIGGKSVHWYQQKPGQAPVLVIYYDDDRPSGIPERFSGSNSGNTATLTISRVEAGDEADYFCQVWDRSTEHYVFGAGTRVTVL
Take B11: the “pseudovirus neutralization IC50” value in assay [1], in assay [2], in assay [3], in assay [4], in assay [5] and in assay [6] was greater than 10 µg/mL each time. Besides, the “pseudovirus neutralization IC50” value in assay [7] is greater than 10 µg/mL.

B12: BD55-814 (protein)
chain 1: QLQLQESGPRLVKPSETLSLTCTVSGGSISSSSYYWGWIRQPPGKGLEWIGSIYYTGSTYYNPSLKSRVTMSVDTSNNQFSLKLSSVTAADTAVYYCARQYSGYDLQDYWGQGTLVTVSS
chain 2: DIQMTQSPSTLSASVGDRVTITCRASQSISSWLAWYQQKPGKAPKLLIYMASNLESGVPSRFSGSGSGTEFTLTISSLQPDDFATYYCQEYNSYSRTFGQGTKVEVK
For B12, the “pseudovirus neutralization IC50” value in assay [1], in assay [2], in assay [3], in assay [4], in assay [5] and in assay [6] was greater than 10 µg/mL each time. The “pseudovirus neutralization IC50” value in assay [7] is greater than 10 µg/mL.
